# From patent publication US20240109955A1 (published 2024)
# Experiments:
# Assay in all cases: cell-based or functional assay
# [1] = molecular target: SARS-CoV-2 spike protein, Omicron sublineage BA.2.12.1 (SARS-CoV-2, UniProt P0DTC2 14-1273)
# [2] = molecular target: SARS-CoV-2 spike protein, Omicron sublineage BA.2 (SARS-CoV-2, UniProt P0DTC2 14-1273)
# [3] = molecular target: SARS-CoV-2 spike (S) protein, Omicron sublineage BA.2.12.1 (SARS-CoV-2, UniProt P0DTC2 14-1273)
binder,measurement,setting,value
MX828 (bispecific antibody) QTVVTQEPSFSVSPGGTVTLTCGLSSGSVSTAYFPSWYQQTPGQAPRTLIYGTNTRSSGVPDRFSGSILGNKAALTITGAQADDESDYYCVLYMGRGIVVFGGGTKLTVLGGSSGEIVLTQSPGTLSLSPGERATLSCRASQSVSSSYLAWYQQKPGQAPRLLIYSASSRATGIPDRFSGSGSGTDFTLTISRLEPEDFAVYFCQQYVGLTGWTFGQGTKVEIKGGGGSGGSGSGGGGSASGSGQMQLVQSGPEVKKPGTSVKVSCKASGFTFTSSAVQWVRQRQRLEWIGWIVVGSGNTNYAQKFQERVTITRDMSTSTAYMELSSLRSEDTAVYYCAAPNCSNVVCYDGFDIWGQGTMVTVSSGGSSGQVQLVESGGGVVQPGRSLRLSCAASGFTLSSYGMHWVRQAPGKGLEWVAVISYDGSNKYYVDSVKGRFTISRDNSKNTLYLQMNSLRAEDTAVYYCRWAYWELLPDYYYGMDVWGQGTTVTVSSASGGSGDKTHTCPPCPAPELLGGPSVFLFPPKPKDTLMISRTPEVTCVVVDVSHEDPEVKFNWYVDGVEVHNAKTKPREEQYNSYVVSVLTVLHQDWLNGKEYKCKVSNKALPAPIEKTISKAKGQPREPQVYTLPPSRDELTKNQVSLTCLVKGFYPSDIAVEWESNGQPENNYKTTPPVLDSDGSFFKKLTVDKSRWQQGNVFSCSVLHEALHSHYTQKSLSLSPG,"IC50, pseudovirus neutralization",[1],43 nM
same,"IC80, pseudovirus neutralization",[1],75 nM
same,"IC50, pseudovirus neutralization",[2],13.7 nM
same,"IC80, pseudovirus neutralization",[2],20.3 nM
MX829 (bispecific antibody) DIQMTQSPSSVSASVGDRVIITCRASQGISSWLAWYQQKPGKAPKVLIYDASSLQSGVPSRFSGSGYGTDFTLTISSLQPEDSATYYCQQAKSFPITFGQGTRLEIKGGSSGEIVLTQSPGTLSLSPGERATLSCRASQSVSSSYLAWYQQKPGQAPRLLIYSASSRATGIPDRFSGSGSGTDFTLTISRLEPEDFAVYFCQQYVGLTGWTFGQGTKVEIKGGGGSGGSGSGGGGSASGSGQMQLVQSGPEVKKPGTSVKVSCKASGFTFTSSAVQWVRQRQRLEWIGWIVVGSGNTNYAQKFQERVTITRDMSTSTAYMELSSLRSEDTAVYYCAAPNCSNVVCYDGFDIWGQGTMVTVSSGGSSGQVQLVESGGGVVQPGRSLRLSCAASGFTFSSYAFHWVRQAPGKGLEWVAVISYDGSNQYYADSVKGRFTISRDNSKNTLYLQMNSLRADDTAVYYCARDLAIAVAGTWHYYNGMDVWGQGTTVTVSSASGGSGDKTHTCPPCPAPELLGGPSVFLFPPKPKDTLMISRTPEVTCVVVDVSHEDPEVKFNWYVDGVEVHNAKTKPREEQYNSYVVSVLTVLHQDWLNGKEYKCKVSNKALPAPIEKTISKAKGQPREPQVYTLPPSRDELTKNQVSLTCLVKGFYPSDIAVEWESNGQPENNYKTTPPVLDSDGSFFKKLTVDKSRWQQGNVFSCSVLHEALHSHYTQKSLSLSPG,"IC50, pseudovirus neutralization",[1],3.96 nM
same,"IC80, pseudovirus neutralization",[1],8.4 nM
same,"IC50, pseudovirus neutralization",[2],3.58 nM
same,"IC80, pseudovirus neutralization",[2],6.06 nM
MX830 (bispecific antibody) QTVVTQEPSFSVSPGGTVTLTCGLSSGSVSTAYFPSWYQQTPGQAPRTLIYGTNTRSSGVPDRFSGSILGNKAALTITGAQADDESDYYCVLYMGRGIVVFGGGTKLTVLGGSSGEIVLTQSPGTLSLSPGERATLSCRASQSVSSSYLAWYQQKPGQAPRLLIYSASSRATGIPDRFSGSGSGTDFTLTISRLEPEDFAVYFCQQYGGLTGWTFGQGTKVEIKGGGGSGGSGSGGGGSASGSGQMQLVQSGPEVKKPGTSVKVSCKASGFTFTSSAVQWVRQRQRLEWIGWIVVGSGNTNYAQKFQERVTITRDMSTSTAYMELSSLRSEDTAVYYCAAPNCSNVVCYDGFDIWGQGTMVTVSSGGSSGQVQLVESGGGVVQPGRSLRLSCAASGFTLSSYGMHWVRQAPGKGLEWVAVISYDGSNKYYVDSVKGRFTISRDNSKNTLYLQMNSLRAEDTAVYYCRWAYWELLPDYYYGMDVWGQGTTVTVSSASGGSGDKTHTCPPCPAPELLGGPSVFLFPPKPKDTLMISRTPEVTCVVVDVSHEDPEVKFNWYVDGVEVHNAKTKPREEQYNSYVVSVLTVLHQDWLNGKEYKCKVSNKALPAPIEKTISKAKGQPREPQVYTLPPSRDELTKNQVSLTCLVKGFYPSDIAVEWESNGQPENNYKTTPPVLDSDGSFFKKLTVDKSRWQQGNVFSCSVLHEALHSHYTQKSLSLSPG,"IC50, pseudovirus neutralization",[1],62.7 nM
same,"IC80, pseudovirus neutralization",[1],94.3 nM
same,"IC50, pseudovirus neutralization",[2],9.41 nM
same,"IC80, pseudovirus neutralization",[2],10.8 nM
MX831 (bispecific antibody) DIQMTQSPSSVSASVGDRVIITCRASQGISSWLAWYQQKPGKAPKVLIYDASSLQSGVPSRFSGSGYGTDFTLTISSLQPEDSATYYCQQAKSFPITFGQGTRLEIKGGSSGEIVLTQSPGTLSLSPGERATLSCRASQSVSSSYLAWYQQKPGQAPRLLIYSASSRATGIPDRFSGSGSGTDFTLTISRLEPEDFAVYFCQQYGGLTGWTFGQGTKVEIKGGGGSGGSGSGGGGSASGSGQMQLVQSGPEVKKPGTSVKVSCKASGFTFTSSAVQWVRQRQRLEWIGWIVVGSGNTNYAQKFQERVTITRDMSTSTAYMELSSLRSEDTAVYYCAAPNCSNVVCYDGFDIWGQGTMVTVSSGGSSGQVQLVESGGGVVQPGRSLRLSCAASGFTFSSYAFHWVRQAPGKGLEWVAVISYDGSNQYYADSVKGRFTISRDNSKNTLYLQMNSLRADDTAVYYCARDLAIAVAGTWHYYNGMDVWGQGTTVTVSSASGGSGDKTHTCPPCPAPELLGGPSVFLFPPKPKDTLMISRTPEVTCVVVDVSHEDPEVKFNWYVDGVEVHNAKTKPREEQYNSYVVSVLTVLHQDWLNGKEYKCKVSNKALPAPIEKTISKAKGQPREPQVYTLPPSRDELTKNQVSLTCLVKGFYPSDIAVEWESNGQPENNYKTTPPVLDSDGSFFKKLTVDKSRWQQGNVFSCSVLHEALHSHYTQKSLSLSPG,"IC50, pseudovirus neutralization",[1],38 nM
same,"IC80, pseudovirus neutralization",[1],42.9 nM
same,"IC50, pseudovirus neutralization",[2],0.03 nM
same,"IC80, pseudovirus neutralization",[2],0.08 nM
MX834 (other) chain 1: QTVVTQEPSFSVSPGGTVTLTCGLSSGSVSTAYFPSWYQQTPGQAPRTLIYGTNTRSSGVPDRFSGSILGNKAALTITGAQADDESDYYCVLYMGRGIVVFGGGTKLTVLGGSSGEIVLTQSPGTLSLSPGERATLSCRASQSVSSSYLAWYQQKPGQAPRLLIYSASSRATGIPDRFSGSGSGTDFTLTISRLEPEDFAVYFCQQYVGLTGWTFGQGTKVEIKGGGGSGGSGSGGGGSASGSGQMQLVQSGPEVKKPGTSVKVSCKASGFTFTSSAVQWVRQRQRLEWIGWIVVGSGNTNYAQKFQERVTITRDMSTSTAYMELSSLRSEDTAVYYCAAPNCSNVVCYDGFDIWGQGTMVTVSSGGSSGQVQLVESGGGVVQPGRSLRLSCAASGFTLSSYGMHWVRQAPGKGLEWVAVISYDGSNKYYVDSVKGRFTISRDNSKNTLYLQMNSLRAEDTAVYYCRWAYWELLPDYYYGMDVWGQGTTVTVSSASGGSGDKTHTCPPCPAPELLGGPSVFLFPPKPKDTLMISRTPEVTCVVVDVSHEDPEVKFNWYVDGVEVHNAKTKPREEQYNSYVVSVLTVLHQDWLNGKEYKCKVSNKALPAPIEKTISKAKGQPREPQVYTLPPCRDELTKNQVSLWCLVKGFYPSDIAVEWESNGQPENNYKTTPPVLDSDGSFFKKLTVDKSRWQQGNVFSCSVLHEALHSHYTQKSLSLSPG chain 2: QTVVTQEPSFSVSPGGTVTLTCGLSSGSVSTAYFPSWYQQTPGQAPRTLIYGTNTRSSGVPDRFSGSILGNKAALTITGAQADDESDYYCVLYMGRGIVVFGGGTKLTVLGGSSGEIVLTQSPGTLSLSPGERATLSCRASQSVSSSYLAWYQQKPGQAPRLLIYSASSRATGIPDRFSGSGSGTDFTLTISRLEPEDFAVYFCQQYVGLTGWTFGQGTKVEIKGGGGSGGSGSGGGGSASGSGQMQLVQSGPEVKKPGTSVKVSCKASGFTFTSSAVQWVRQRQRLEWIGWIVVGSGNTNYAQKFQERVTITRDMSTSTAYMELSSLRSEDTAVYYCAAPNCSNVVCYDGFDIWGQGTMVTVSSGGSSGQVQLVESGGGVVQPGRSLRLSCAASGFTLSSYGMHWVRQAPGKGLEWVAVISYDGSNKYYVDSVKGRFTISRDNSKNTLYLQMNSLRAEDTAVYYCRWAYWELLPDYYYGMDVWGQGTTVTVSSASGGSGDKTHTCPPCPAPELLGGPSVFLFPPKPKDTLMISRTPEVTCVVVDVSHEDPEVKFNWYVDGVEVHNAKTKPREEQYNSYVVSVLTVLHQDWLNGKEYKCKVSNKALPAPIEKTISKAKGQPREPQVYTLPPCRDELTKNQVSLWCLVKGFYPSDIAVEWESNGQPENNYKTTPPVLDSDGSFFKKLTVDKSRWQQGNVFSCSVLHEALHSHYTQKSLSLSPG,"IC50, pseudovirus neutralization",[3],4.62 nM
same,"IC80, pseudovirus neutralization",[3],12.1 nM
